O.D. (450 nm) (O.D. (450 nm)) data for two substances are collected here from US20150175975A1.

Test [1] concerns the target EILV/EEEV chimera (Eastern equine encephalitis virus) (UniProt P08768). The test can be described thus: ELISA on coated EILV/EEEV chimera 1:1,000; background control, dilution 1:5,000.
The target is the same in test [2]. Kind of test: ELISA on coated EILV/EEEV chimera 1:1,000; background control, dilution 1:10,000.
Test [3] has the same target. The test can be described thus: ELISA on coated EILV/EEEV chimera 1:100; background control, dilution 1:5,000.

Consider “biotin-SP-Affinipure Goat anti-Mouse IgG (Jackson Labs Cat#: 115-065-164) (antibody)”, for which the values for the O.D. (450 nm) (O.D. (450 nm)) in test [1], in test [2] and in test [3] were 0.06, 0.06 and 0.07, respectively.
Regarding “streptavidin-horseradish peroxidase conjugate (Roche Immunochemical) (from UniProt P22629 37-163)”, the O.D. (450 nm) (O.D. (450 nm)) in test [1], in test [2] and in test [3] was 0.06 in each case.
